# Tested on: HIV-1
# Assay: HIV-1 infection of primary cells in vitro (p24)
# Type: cell-based
# Conditions: controls at similar, equimolar or higher concentrations
# Protocol: Virus (MOI of 0.001) was added to 10^6 cells in RPMI-1640 with 10% FCS. One hour later the various polypeptides were added once. The cells cultured for 3 days with 5 ug PHA and 20 i.m. of II-2/ml at 37°, after which virus was estimated by determining p24 (HIV-1) or p27 (SIV) (Organon-Teknika).
# The effect of native and synthetic MA on HIV-1 infection in vitro was evaluated using PHA and II-2 stimulated primary peripheral blood cells (PBMC), CD4+ T-cells enriched fractions from PBMC, and CD14+ macrophage enriched fractions. Infection was with HIV-1 IIIB (PBMC and CD4+ T-cells), HIV-1 Ba-L (macrophages), and two primary HIV-1 isolates not passaged in any cell line (PBMC).
substance,measurement,value
CR127: highly purified native hCG [reference compound],inhibition of HIV replication (qualitative),No inhibition

# Reference: patent US9175077B2, “Nucleic acids encoding biologically active polypeptides derived from a novel early stage pregnancy factor designated maternin (MA)” (NOBEL BIOSCIENCES LLC, priority 1999, dated 2015)
